≈ marks a conversion by molar mass, not a printed value.
Experiments:
L1210 cells = assay: ID50 against L1210 cells
KB cells = assay: Zone of inhibition against KB cells in agar (paper disk); conditions: 6.4 mm paper disk
P388 Lymphatic Leukemia = assay: Antitumor activity against P388 lymphatic leukemia in mice; conditions: values ≥ 130 considered active

CC1=C[C@H]2O[C@@H]3C[C@@H](OC(=O)/C=C\C=C\C(OCCC4=CC(=O)OC4)C(C)O)[C@](C)([C@@]2(CO)CC1)[C@]31CO1 (some centres unmarked)
ID50 (L1210 cells): 0.178 mg/L (≈ 0.335 µM)
zone diameter of inhibition (KB cells; 10 μg per milliliter): 12 mm
zone diameter of inhibition (KB cells; 100 μg per milliliter): 28 mm
T/C percent MST (P388 Lymphatic Leukemia; 1 mg/kg/day, test 1): 132%
T/C percent MST (P388 Lymphatic Leukemia; 1 mg/kg/day, test 2): 150%
T/C percent MST (P388 Lymphatic Leukemia; 2 mg/kg/day, test 1): 140%
T/C percent MST (P388 Lymphatic Leukemia; 4 mg/kg/day, test 1): 134%
T/C percent MST (P388 Lymphatic Leukemia; 4 mg/kg/day, test 2): 132%
T/C percent MST (P388 Lymphatic Leukemia; 8 mg/kg/day, test 1): 157%
T/C percent MST (P388 Lymphatic Leukemia; 8 mg/kg/day, test 2): 176%
T/C percent MST (P388 Lymphatic Leukemia; 16 mg/kg/day, test 2): 185%

— US4382952A, “Antibiotic roridin L-2 and its use” (dated 1983)
